A mixed list of measured activities; the numbers were collected in NIAID ChemDB.

All rows: whole-cell or culture tests; organism: Mycobacterium tuberculosis

ECn: concentration that inhibits the pathogen or its effect by n%.

smiles	strain	mutations	cells	method	setting	endpoint	tested at	value
CC1=C(C(=O)Nc2ccccc2C)C(c2cccc([N+](=O)[O-])c2)C(C(=O)Nc2ccccc2C)=C(C)N1	H37Rv	-	-	-	-	MIC	-	>12.5 µg/mL
O=c1c(Cl)c(Cl)cnn1CCCl	-	-	-	resazurin	-	inhibition	6.25 µg/mL	59%
CO[C@H]1/C=C/O[C@@]2(C)Oc3c(C)c(O)c4c(O)c(c5c(c4c3C2=O)NC2(CCN(CC(C)C)CC2)N=5)=NC(=O)/C(C)=C\C=C\[C@H](C)[C@H](O)[C@@H](C)[C@@H](O)[C@@H](C)[C@H](OC(C)=O)[C@@H]1C	16 strains (rifampicin-susceptible)	-	-	-	-	MIC50	-	0.025 µg/mL
CCCCCCCCCCCNCCNCc1ccccc1F	-	-	-	-	-	MIC	-	25 µM
Cc1onc(-c2c(F)cccc2F)c1C(=O)N1CCN(c2cc3c(cc2F)c(=O)c(C(=O)O)cn3C(C)(C)C)CC1	ATCC35801	-	-	-	-	MIC	-	5.51 µM
c1csc(CCNCCNC2C3CC4CC(C3)CC2C4)c1	-	-	-	-	-	MIC	-	25 µM
CCOc1ccc(NC(=S)Nc2ccc(OCC(C)C)cc2)cc1	H37RV #301	-	-	-	-	MIC	-	3.9 µg/mL
S=c1nc2[nH]c3ccc(Br)cc3c2n[nH]1	H37Rv	-	-	resazurin	-	MIC bound	-	>6.25 µg/mL
O=C(O)c1cn(C2CC2)c2cc(N3CCN(C/C(=N/O)c4ccccc4)CC3)c(F)cc2c1=O	H37Rv	-	VERO	-	-	EC50	-	<6.25 µg/mL
CC1=C(C(=O)Nc2ccc(F)c(Cl)c2)C(c2ccccc2Cl)C(C(=O)Nc2ccc(F)c(Cl)c2)=C(C)N1	H37Rv	-	-	-	-	MIC	-	>6.25 µg/mL
CC(C)N1CN(C(C(=O)NC2C(=O)N3C2SC(C)(C)C3C(=O)O)c2ccc(O)cc2)CSC1=S	H37Rv	-	-	BACTEC	-	inhibition	12.5 µg/mL	-1%
NC(=O)c1cnccn1	Erdman	-	-	-	7 d	EC50	-	<800 µg/mL
NCC[C@H](O)C(=O)N[C@@H]1C[C@H](N)[C@@H](O[C@H]2O[C@H](CN)[C@@H](O)[C@H](O)[C@H]2O)[C@H](O)[C@H]1O[C@H]1O[C@H](CO)[C@@H](O)[C@H](N)[C@H]1O	H37Rv	-	-	-	-	MIC	-	2.5 µg/mL
COc1ccc(-c2noc(C3=CC4(CCN(CC5CCCO5)CC4)c4ccccc43)n2)cc1	D-211	Drug-resistant	-	resazurin	-	MIC	-	0.39 µM
CN(C)CCOC1=Nc2ccccc2O/C1=C\c1ccccc1	H37Rv	-	-	BACTEC	-	inhibition	12.5 µg/mL	28%
CC(C)(C)c1ccc(CN2CCC3(CC2)C(=O)N(CC2CC2)c2ccccc23)cc1	H37Rv	-	-	resazurin	-	MIC	-	0.8 µM
c1ccc(CCCCNCCNCCCc2ccccc2)cc1	-	-	-	-	-	MIC	-	25 µM
COc1ccccc1NC(=O)c1cccc2nc3ccccc3nc12	H37Rv 27294	-	-	-	-	MIC	-	0.78 µg/mL
CC(c1cccs1)N(C(=S)Nc1ccccc1)c1ccc(F)c(Cl)c1	-	-	-	visual reading	-	MIC	-	12.5 µg/mL
CN(C)/N=C(\N)c1nnn(C)n1	H37Rv	-	-	BACTEC	-	inhibition	12.5 µg/mL	0%
CCCCCCCCCCCNCCNC/C=C(\C)CCC=C(C)C	-	-	-	-	-	MIC	-	25 µM
CCn1cc(C(=O)O)c(=O)c2cc(F)c(N3CCN(C/C(=N/O)c4ccc(Br)cc4)CC3)nc21	H37Rv	-	-	-	-	EC50	-	>6.25 µg/mL
CN(C)c1ccc(/C=C/C(=O)c2ccccn2)cc1	H37Rv	-	-	-	-	MIC	-	>12.5 µg/mL
O=C(NC(=S)c1cccc2ccccc12)NS(=O)(=O)c1ccc(Cl)cc1	H37Rv	-	-	resazurin	-	inhibition	6.25 µg/mL	-11%
CCCCOc1ccc(NC(=S)Nc2ccc(OCCN(CC)CC)cc2)cc1	Ravenel #226	-	-	-	-	MIC	-	16.6 µg/mL
CC1=C(C(=O)Nc2ccccc2C)C(c2ccccc2Cl)C(C(=O)Nc2ccccc2C)=C(C)N1	H37Rv	-	-	-	-	MIC	-	>12.5 µg/mL
NNC(=O)c1ccncc1	98596	-	-	-	-	MIC	-	≥0.2 µg/mL
O=C(Nc1cccnc1)c1cccc2nc3ccccc3nc12	H37Rv 27294	-	-	-	-	MIC	-	0.78 µg/mL
CN1N=C(c2ccncc2)OC1c1ccc(F)cc1	H37Rv	-	-	-	-	MIC	-	>20 µg/mL
COc1c2c(cc3c1c(=O)c1ccccc1n3C)OCO2	H37Rv	-	-	BACTEC	-	inhibition	12.5 µg/mL	14%
CO[C@H]1/C=C/O[C@@]2(C)Oc3c(C)c(O)c4c(O)c(c(/C=N/N5CCN(C)CC5)c(O)c4c3C2=O)NC(=O)/C(C)=C\C=C\[C@H](C)[C@H](O)[C@@H](C)[C@@H](O)[C@@H](C)[C@H](OC(C)=O)[C@@H]1C	42494	-	-	-	-	MIC	-	≥2 µg/mL
S=C(Nc1ccc(Cl)cc1)c1ccccn1	H37Rv	-	-	resazurin	-	MIC	-	0.78 µg/mL
Oc1cc(Cl)ccc1Oc1ccc(Cl)cc1Cl	M305	-	-	-	-	MIC	-	20 µM
CCCCC(CC)CN1CN(CC(CC)CCCC)CC(C)(NCCNCc2ccccc2Sc2ccccc2CO)C1	-	-	-	-	-	MIC	-	25 µM
CCN(CC)CCCNc1nccc2c(C)c3[nH]c4ccncc4c3cc12	H37Rv	-	-	resazurin	-	inhibition	6.25 µg/mL	47%
COc1ccc(C2C(C(=O)Nc3ccc(F)cc3)=C(C)NC(C)=C2C(=O)Nc2ccc(F)cc2)cc1	H37Rv	-	-	-	-	MIC	-	>6.25 µg/mL
CN1N=C(c2ccncc2)OC1c1ccc(Cl)cc1	H37Rv	-	-	-	-	MIC	-	>20 µg/mL
O=c1cc(-c2ccccc2Br)oc2ccccc12	H37Rv	-	-	-	-	inhibition	12.5 µg/mL	23%
Fc1ccc(N(Cc2ccco2)C(=S)Nc2ccccc2)cc1Cl	-	-	-	visual reading	-	MIC	-	50 µg/mL
O=C(O)c1ccccc1	H37Rv	-	-	BACTEC	-	MIC bound	-	>12.5 µg/mL
C1=C(c2nc(-c3ccccc3)no2)c2ccccc2OC12CCN(CC1CCCO1)CC2	H37Rv	-	-	turbidity	-	MIC	-	3.1 µM
COc1ccc(-c2cc(=O)c3cc(F)ccc3o2)cc1	H37Rv	-	-	-	-	inhibition	12.5 µg/mL	0%
Br.Br.c1cnc2c(c1)-n1cccc1C1(CCSCC1)NN2	H37Rv	-	-	BACTEC	-	MIC bound	-	>12.5 µg/mL
O=c1c(Br)c(-c2ccccc2)oc2ccccc12	H37Rv	-	-	-	-	inhibition	12.5 µg/mL	0%
CCn1cc(C(=O)O)c(=O)c2cc(F)c(N3CCN(C/C(=N/O)c4ccccc4)CC3)nc21	H37Rv	-	-	-	-	inhibition	6.25 µg/mL	36%
CN1N=C(c2ccncc2)OC1c1cccc(F)c1	6 PI	-	-	-	-	MIC	-	>20 µg/mL
CC(=O)NC[C@H]1CN(c2ccc(N3CCN(Cc4ccc([N+](=O)[O-])s4)CC3)c(F)c2)C(=O)O1	59 isolates	-	-	-	-	MIC50	-	0.032 µg/mL
Cc1onc(-c2c(F)cccc2F)c1C(=O)N1CCN(c2cc3c(cc2F)c(=O)c(C(=O)O)cn3C2CC2)CC1	ATCC35801	-	-	-	-	MIC	-	5.67 µM
C1=C(c2nc(-c3cccnc3)no2)c2ccccc2C12CCN(CC1CCCO1)CC2	912253	Isoniazid-resistant	-	resazurin	-	MIC	-	1.56 µM
NNC(=O)c1ccncc1	HUG.MB.6726	inhA mutant isoniazid resistant	-	resazurin / absorbance	-	MIC	-	2.2 µg/mL
CCn1cc(C(=O)O)c(=O)c2cc(F)c(N3CCN(C/C(=N/O)c4ccccc4)CC3)cc21	H37Rv	-	-	-	-	MIC	-	>6.25 µg/mL
COc1ccc(-c2cc(=O)c3cc(C(=O)O)ccc3o2)cc1	H37Rv	-	-	-	-	MIC	-	>12.5 µg/mL
CCOC(=O)/C=C/c1ccc(OC)cc1	BTB09-382	-	-	resazurin	-	MIC	-	485 µM
O=C1CSCC(=O)OCCOCCSCCOCCO1	H37Rv	-	-	BACTEC	-	inhibition	12.5 µg/mL	-4%
CCCCOc1ccc(NC(=S)Nc2ccc(N(C)C)cc2)cc1	76	-	-	-	-	MIC	-	7.8 µg/mL
CC1=C(C(=O)Nc2ccc(Cl)cc2)C(c2cccc([N+](=O)[O-])c2)C(C(=O)Nc2cccc(C)c2C)=C(C)N1	H37Rv	-	-	-	-	MIC	-	>6.25 µg/mL
C=C1C(O)CC2C(O)C3(C)CCC(C)(C)C3C12O	H37Rv	-	-	BACTEC	-	inhibition	12.5 µg/mL	21%
S=C(Nc1ccccc1)N(Cc1ccco1)c1ccc(Cl)c(Cl)c1	-	-	-	visual reading	-	MIC	-	25 µg/mL
CC(C)(C)n1cc(C(=O)O)c(=O)c2cc([N+](=O)[O-])c(N3CCC4(CC3)OCCO4)cc21	ATCC35801	-	-	-	-	MIC	-	3.86 µM
CC1=C(C(=O)Nc2ccc(Cl)cc2Cl)C(c2ccc(Cl)cc2)C(C(=O)Nc2ccc(Cl)cc2Cl)=C(C)N1	H37Rv	-	-	-	-	MIC	-	>6.25 µg/mL
COc1ccc(C2OC(c3ccncc3)=NN2C)cc1F	H37Rv	-	-	-	-	MIC	-	>20 µg/mL
Cc1ccnc(NC(=O)c2cccc3nc4ccccc4nc23)c1	H37Rv 27294	-	-	-	-	MIC	-	0.78 µg/mL
CCC(C)N(C(=S)NC)c1ccc(F)c(Cl)c1	-	-	-	visual reading	-	MIC	-	>400 µg/mL
COc1cccc(NC(=O)c2cccc3nc4ccccc4nc23)c1	H37Rv 27294	-	-	-	-	MIC	-	0.39 µg/mL
Nc1ccccc1/C=C/C(=O)c1cc(Br)ccc1O	H37Rv	-	-	-	-	inhibition	12.5 µg/mL	8%
C[C@@H]1[C@H]2C[C@@H](C[C@H]1NCCNCC(c1ccccc1)c1ccccc1)C2(C)C	-	-	-	-	-	MIC	-	6.25 µM
CO[C@H]1/C=C/O[C@@]2(C)Oc3c(C)c(O)c4c(O)c(c5c(c4c3C2=O)NC2(CCN(C)CC2)N=5)=NC(=O)/C(C)=C\C=C\[C@H](C)[C@H](O)[C@@H](C)[C@@H](O)[C@@H](C)[C@H](OC(C)=O)[C@@H]1C	H37Rv	-	-	resazurin	-	MIC	-	0.1 µg/mL
O=c1cc(-c2ccccc2)oc2c(I)cccc12	H37Rv	-	-	-	-	MIC	-	>12.5 µg/mL
CN1N=C(c2ccncc2)OC1c1ccccc1	6 PI	-	-	-	-	MIC	-	>20 µg/mL
O=C(O)c1cn(-c2ccc(F)cc2F)c2cc(N3CCN(C(c4ccccc4)c4ccc(Cl)cc4)CC3)c(F)cc2c1=O	ATCC35801	-	-	-	-	MIC	-	10.35 µM
NNC(=O)CN1c2ccccc2Sc2ccc(Cl)cc21	H37Rv	-	-	BACTEC	-	MIC bound	-	>12.5 µg/mL
c1ccc(CNCCNCc2ccco2)cc1	-	-	-	-	-	MIC	-	50 µM
Cc1ccc(C)c(NC(=O)c2cccc3nc4ccccc4nc23)c1	H37Rv 27294	-	-	-	-	MIC	-	0.78 µg/mL
Cc1c([N+](=O)[O-])c(=O)oc2c1ccc1occc(=O)c12	H37Rv	-	-	BACTEC	-	MIC bound	-	>12.5 µg/mL
CNC(=S)N(c1ccc(Cl)c(Cl)c1)C(C)c1cccs1	-	-	-	visual reading	-	zone	1000 µg/mL	15.4 mm
Cc1ccc(NC(=O)/C(Cc2cc(=O)oc3cc(O)ccc23)=N/NC(=O)C[N+](C)(C)C)cc1C.[Cl-]	H37Rv	-	-	BACTEC	-	inhibition	12.5 µg/mL	21%
Cc1ccc(-c2noc(C3=CC4(CCN(CC5CCCO5)CC4)c4ccccc43)n2)cn1	TB375	Spiroindene-resistant	-	turbidity	-	MIC	-	15.5 µM
C/C=C1/C(=O)O[C@]23C=C[C@@H]4C(C(=O)OC)=CO[C@H](O[C@@H]12)[C@@H]43	H37Rv	-	-	BACTEC	-	MIC	-	≥12.8 µg/mL
CN[C@@H]1[C@H](O[C@H]2[C@H](O[C@H]3[C@H](O)[C@@H](O)[C@H](N=C(N)N)[C@@H](O)[C@@H]3N=C(N)N)O[C@@H](C)[C@]2(O)C=O)O[C@@H](CO)[C@H](O)[C@H]1O	Beijing (E-47/94)	Drug-resistant	-	resazurin	-	MIC	-	0.5 µM
CO[C@@]12[C@H](COC(N)=O)C3=C(C(=O)C(C)=C(N)C3=O)N1C[C@H]1[C@@H]2N1C(=O)C1N2C(=O)[C@@H](NC(=O)Cc3ccccc3)[C@H]2SC1(C)C	H37Rv	-	VERO	-	-	MIC	-	0.2 µg/mL
COc1ccc(-c2oc3c(I)cccc3c(=O)c2O)cc1	H37Rv	-	-	-	-	MIC	-	>12.5 µg/mL
O=C1C2C3C=CC(C3)C2C(=O)N1c1ncc([N+](=O)[O-])s1	H37Rv	-	-	resazurin	-	inhibition	6.25 µg/mL	0%
Nc1cccc(C(=O)/C=C/c2ccccc2I)c1	H37Rv	-	-	-	-	MIC	-	>12.5 µg/mL

Conditions beyond the fields shown may differ between rows. Zone: diameter of growth inhibition. An empty or dashed field is not shown. Percent inhibition refers to the dose given; in toxicity tests it is the harm to the cells. A number after MIC or MFC names an inhibition level or a share of isolates. MIC bound comes from a single tested concentration.